Measurements reported in PubChem BioAssay AID1259414 (Drosophila RNAi Screening Center, 2018)

- Aim: 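Fly genes that alter Wolbachia amount inside host cells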 (primary screen)
- System: Drosophila JW18 cells infected with Wolbachia
- Knock-down reagent: long dsRNA against Drosophila genes, 0.25 µg dsRNA per well of a 384-well plate
- Time to read-out: 5 days
- Treatment: cells persistently infected with Wolbachia before knock-down; no added drug
- Read-out: 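Imaged fluorescence in situ signal for Wolbachia 23S rRNA per DAPI-counted host cell, given as a robust z-score within each plate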
- Direction: Wolbachia per cell robust z: higher = more Wolbachia per host cell than the plate typical
- Call rule: 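Active if absolute robust z reaches 1.5 in two or more of three replicates, leaving out multi- or no-target dsRNAs, genes unexpressed in JW18 and A1 wells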
The screen tested about 24,000 reagents; shown is an unselected part of those with a known target gene and a result. Of all reagents, about 1,210 (5%) got an active call. 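Inactive calls also include excluded dsRNAs with several or no targets, genes unexpressed in JW18, and well A1, regardless of score.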 A number with no mark means an inactive call. Reagents against one gene are numbered here. A plus sign joins genes that one reagent is predicted to hit. No sequences are given here.

gene,reagent,"Wolbachia per cell robust z, rep 1","Wolbachia per cell robust z, rep 2","Wolbachia per cell robust z, rep 3"
FucTB,1,-1.02,-0.977,-1.61
CG15120,1,-0.582,-2.9,-0.444
Skp2 + CG14645,1,0.585,0.00534,0.146
dlp,1,-0.236,0.456,0.702
dlp,2,1.17,0.996,-0.416
Mtk,1,-0.77 (active),-4.13,-1.57
Mtk,2,0.00307,-2.16,-0.787
Rcd1,1,-0.367,1.45,-0.316
Rcd1,2,0.231,0.736,-0.844
Ubc84D,1,0.986,-0.168,-0.732
Ubc84D,2,-2.47,-2.33,-1.6
fd96Ca,1,-0.0518,0.00106,1.21
fd96Ca,2,-0.456,0.493,1.42
Rpn2,1,2.7 (active),0.38,2.91
CG44836,1,0.861,-0.809,-0.791
CG44836,2,0.68,-0.0773,-0.386
CG44836,3,-0.154,-0.288,0.736
Mst85C,1,1.42,0.772,2.12
Mst85C,2,-0.178,0.257,0.76
CG12128,1,-0.658,-0.709,-0.433
CG12128,2,-0.448,-1.27,-5.78
Uev1A,1,0.802,1.2,-3.16
cdi,1,-0.104,0.0157,1.7
cdi,2,-1.14,-0.111,-1.56
eIF2D,1,-2.28,-4.68,-1.49
CG18493,1,1.56,-1.23,0.355
mei-41,1,0.65,0.178,-2.04
mei-41,2,0.958,0.545,0.717
CaMKI,1,0.182,-0.695,-7.6

Called active, of those listed so far:
gene,reagent,"Wolbachia per cell robust z, rep 1","Wolbachia per cell robust z, rep 2","Wolbachia per cell robust z, rep 3"
Mtk,1,-0.77 (active),-4.13,-1.57
Rpn2,1,2.7 (active),0.38,2.91

Further reagents follow:
gene,reagent,"Wolbachia per cell robust z, rep 1","Wolbachia per cell robust z, rep 2","Wolbachia per cell robust z, rep 3"
Phk-3,1,-0.0553,1.4,0.104
Phk-3,2,0.0321,0.617,0.346
foxo,1,1.13,1.27,1.24
foxo,2,1.02,1.38,1.01
foxo,3,0.858,0.595,-0.484
CG7006,1,0.522,-0.555,-2.59
Mst36Fa,1,0.671,0.644,0.373
Mst36Fa,2,0.567,-0.198,-0.255
Fic,1,-4.64,0.372,-0.474
CG31789,1,0.725,-1.98,-0.454
CG31789,2,0.104,0.242,0.65
Efr,1,-1.52,-1.18,-0.00196
Efr,2,1.26,-0.409,-0.444
CG13562,1,0.086,1.37,1.02
CG13562,2,-0.506,-0.772,-1.33
snama,1,-4.21,-0.581,-0.841
snama,2,0.0792,-0.748,-0.262
CG8908,1,-0.61,-1.07,-0.0927
Cpr47Eb,1,1.22,0.355,1.32
me31B,1,2.19 (active),1.5,1.48
Tti1,1,-2.7,-0.97,-0.616
Tti1,2,-0.673,-0.358,-11.1
CG31189,1,0.783,-2.67,-0.403
E(spl)m6-BFM,1,-0.721,0.982,-0.976
Cda5,1,1.13,0.237,-1
Cda5,2,-0.11,0.122,0.69
Cda5,3,0.557,-1.36,-0.276
Ets98B,1,-0.267,-0.0933,0.385
Ets98B,2,-0.84,-1.76,-0.222
Gr61a,1,-0.638,1.41,0.987
CG33160,1,-2.02,-0.759,0.272
CG33160,2,-0.752,-0.525,-0.396
CysRS-m,1,-0.231,0.677,0.845
mrt,1,-0.321,-0.218,0.0929
mrt,2,-0.711,-0.48,-0.781
CG12375,1,0.315,-3.89,0.143
CG12375,2,-0.263,1.07,0.905
CG14007,1,0.995,-4.4,0.823
CG42494,1,0.552,0.318,1.43
